Results of unrelated studies side by side (data: NIAID ChemDB).

All rows: target-level tests; agent: HIV-1; target: Reverse transcriptase

Blank or dashed fields: not listed here. Conditions beyond the fields shown may differ between rows. a–b is a range or a potency band. ICn: concentration for n% inhibition.

SMILES	strain	method	endpoint	changes	result
CC(C)(C#Cc1ccc(NC(=O)CSc2nnnn2-c2ccc(C3CC3)cc2Cl)c(Cl)c1)OCCN1CCC1	-	PicoGreen / fluorescence	IC50	RT-K103 Y181C	<1 µM
CCOCn1c(Sc2ccccc2)c(CC)c(=O)[nH]c1=O	-	nucleotide incorporation	IC50	RT-Y181C	3 µM
Cc1cc(C)cc(S(=O)(=O)c2c(C(N)=O)[nH]c3ccc(Cl)cc23)c1	-	nucleotide incorporation / radiometric	IC50	RT-Y181I	0.14 µM
CCN1c2ncc(CCOc3ccc(C(=O)O)c4c3CCCC4)cc2C(=O)N(C)c2ccc(OC)nc21	-	nucleotide incorporation / radiometric	IC50	RT-K103N Y181C	0.1–1 µM
CCOC(=O)CCNC(=O)c1ccc(NC(=O)CSc2nnc(Br)n2-c2ccc(CC)c3ccccc23)c(Cl)c1	-	nucleotide incorporation / radiometric	IC50	-	<0.05 µM
CC(C)(C)c1ccc(-n2nnnc2SCC(=O)Nc2ccc(C(=O)NCCc3ccncc3)cc2Cl)c(Cl)c1	WT	PicoGreen / fluorescence	IC50	-	<1 µM
O=C(CSc1nnc(Br)n1-c1ccc(C2CCC2)c2ccccc12)Nc1ccc(C(=O)O)cc1Cl	-	nucleotide incorporation / radiometric	IC50	-	<0.05 µM
CCN1c2ncc(CCOc3ccc(-c4cc(C)cnc4N)cc3C)cc2C(=O)N(C)c2cccnc21	IIIB	nucleotide incorporation / radiometric	IC50	RT-K103N Y181C	<0.05 µM
CC(C)(C)c1ccc(-n2nnnc2SCC(=O)Nc2ccc(NC(=O)C(C)(C)c3ccccc3)cc2Cl)c(Cl)c1	-	PicoGreen / fluorescence	IC50	RT-K103 Y181C	<1 µM
CCN1c2ncc(CCOc3ccc(N(Cc4ccc(C(=O)O)cc4)C(C)=O)cc3C)cc2C(=O)N(C)c2cccnc21	IIIB	nucleotide incorporation / radiometric	IC50	-	0.05–0.1 µM
c1ccc(-c2nnc3c4ccccc4c(N4CCc5ccccc5C4)nn23)cc1	KER2008	RT activity / fluorescence	IC90	-	>100 µM
COc1ccc2c(C)ccc(-n3c(Br)nnc3SCC(=O)Nc3ccc(C(=O)O)cc3Cl)c2c1	-	nucleotide incorporation / radiometric	IC50	-	<0.05 µM
NC(=O)c1[nH]c2ccc(Cl)cc2c1S(=O)(=O)c1ccccc1	-	nucleotide incorporation / radiometric	IC50	RT-Y181I	0.14 µM
CCN1c2ncc(CCc3cn[nH]c3)cc2C(=O)Nc2c(C)ccnc21	-	nucleotide incorporation / radiometric	IC50	RT-Y181C	<1 µM
CN1CCN(C(=O)COC(C)(C)C#Cc2ccc(NC(=O)CSc3nnnn3-c3ccc(C(C)(C)C)cc3Cl)c(Cl)c2)CC1	-	PicoGreen / fluorescence	IC50	RT-K103 Y181C	<1 µM
CCN1c2ncc(CC(O)c3cc[n+]([O-])cc3)cc2C(=O)N(C)c2ccc(Cl)nc21	-	nucleotide incorporation / radiometric	IC50	RT-Y181C	<1 µM
CCN1c2ncc(CCOc3ccc(NC(=O)c4ccccc4C(=O)O)cc3C)cc2C(=O)N(C)c2cccnc21	IIIB	nucleotide incorporation / radiometric	IC50	-	<0.05 µM
O=C(CSc1nnc(Br)n1-c1ccc(C2CC2)cc1C(F)(F)F)Nc1ccc(C(=O)O)cc1Cl	-	nucleotide incorporation / radiometric	IC50	RT-Y188L	>0.1 µM
CC(C)(C#Cc1ccc(NC(=O)CSc2nnnn2-c2cc(C(F)(F)F)ccc2Cl)c(Cl)c1F)C(=O)NCCN1CCCC1	-	PicoGreen / fluorescence	IC50	RT-K103 Y181C	<1 µM
CCN1c2ncc(CCOc3ccc(-c4csc(N)n4)cc3C)cc2C(=O)N(C)c2cccnc21	IIIB	nucleotide incorporation / radiometric	IC50	RT-K103N Y181C	<0.05 µM
CCN1c2ncc(CCOc3ccc(CC(=O)O)c4ccccc34)cc2C(=O)Nc2c(C)cc(Cl)nc21	WT	nucleotide incorporation / radiometric	IC50	-	<0.1 µM
CCN1c2ncc(CCOc3ccc(S(=O)(=O)c4ccc(C(=O)O)cc4)cc3C)cc2C(=O)N(C)c2cccnc21	IIIB	nucleotide incorporation / radiometric	IC50	RT-K103N Y181C	<0.05 µM
COc1ccc2c(c1)CCN(c1nn3c(C)nnc3c3ccccc13)C2	IIIB	RT activity / fluorescence	IC50	-	4.11 µM
CC(C)(C)c1ccc(-n2nnnc2SCC(=O)Nc2ccc(S(=O)(=O)NCc3ccccc3)cc2Cl)c(Cl)c1	WT	PicoGreen / fluorescence	IC50	-	<1 µM
CCN1c2ncc(CCOc3ccc(/C=C(\C)C(=O)O)c4ccccc34)cc2C(=O)N(C)c2ccc(Cl)nc21	WT	nucleotide incorporation / radiometric	IC50	-	<0.1 µM
CCc1ccc(-n2c(SCC(=O)Nc3ccc(C(=O)O)cc3Cl)nnc2C(F)F)c2ccccc12	-	nucleotide incorporation / radiometric	IC50	RT-Y181C	<0.05 µM
CCN1c2ncc(CCc3ccncc3)cc2C(=O)Nc2c(C)ccnc21	-	nucleotide incorporation / radiometric	IC50	RT-Y181C	<1 µM
CC(C)(C)c1ccc(-n2nnnc2SCC(=O)Nc2ccc(C(=O)N3CCOCC3)cc2Cl)c(Cl)c1	WT	PicoGreen / fluorescence	IC50	-	<1 µM
CCN1c2ncc(CCOc3ccc(C(=O)O)c4ccccc34)cc2C(=O)Nc2c(C)cc(F)nc21	-	nucleotide incorporation / radiometric	IC50	RT-Y188L	>1 µM
Cc1cc(C2CC2)cc(C)c1-n1c(Br)nnc1SCC(=O)Nc1ccc(C(=O)O)cc1Cl	-	nucleotide incorporation / radiometric	IC50	RT-Y188L	>0.1 µM
Cc1nnc2c3ccccc3c(N3CCc4c(F)cccc4C3)nn12	KER2008	RT activity / fluorescence	IC90	-	8.5 µM
CN(C)CCCC(=O)NC(C)(C)C#Cc1ccc(NC(=O)CSc2nnnn2-c2ccc(C3CC3)cc2Cl)c(Cl)c1	-	PicoGreen / fluorescence	IC50	RT-K103 Y181C	<1 µM
CCc1ccc(-n2c(Br)nnc2SCC(=O)Nc2ccc(C(=O)N[C@@H](CO)C(=O)OC)cc2Cl)c2ccccc12	-	nucleotide incorporation / radiometric	IC50	-	<0.05 µM
C#Cc1ccc(NC(=O)CSc2nnnn2-c2ccc(C(C)(C)C)cc2Cl)c(Cl)c1	-	PicoGreen / fluorescence	IC50	RT-K103 Y181C	<1 µM
CCN1c2ncc(CCOc3ccc4cc(CC(=O)O)ccc4c3C)cc2C(=O)N(C)c2cccnc21	WT	nucleotide incorporation / radiometric	IC50	-	<0.1 µM
Cc1cc(C)c(-n2nnnc2SCC(=O)Nc2ccc(C#CC(C)(C)O)cc2Cl)c(Cl)c1	WT	PicoGreen / fluorescence	IC50	-	<1 µM
CCN1c2ncc(CCOc3ccc(C(=O)Nc4cccnc4C)cc3C)cc2C(=O)N(C)c2cccnc21	IIIB	nucleotide incorporation / radiometric	IC50	RT-K103N Y181C	<0.05 µM
O=C(COc1ccc(NC(=O)CSc2nnnn2-c2ccc(C3CC3)cc2Cl)c(Cl)c1)NCCc1cccnc1	WT	PicoGreen / fluorescence	IC50	-	<1 µM
FC(F)(F)c1cccc2c1CCN(c1nn3c(C4CC4)nnc3c3ccccc13)C2	98US_MSC5016	RT activity / fluorescence	IC90	-	46.5 µM
O=C(CSc1nnnn1-c1ccc(C2CC2)cc1Cl)Nc1ccc(S(=O)(=O)Nc2ccncc2)cc1Cl	WT	PicoGreen / fluorescence	IC50	-	<1 µM
CCN1c2ncc(CCOc3ccc(NC(=O)c4ccc(Cl)nc4)cc3C)cc2C(=O)N(C)c2cccnc21	IIIB	nucleotide incorporation / radiometric	IC50	-	<0.05 µM
CCc1cc(NCc2nc3c(C)ccc(C)c3o2)c(=O)[nH]c1C	-	nucleotide incorporation	IC50	RT-Y188H	0.3948 µM
CCN1c2ncc(CCOc3ccc(-c4ccc(C(=O)O)c[n+]4[O-])cc3C)cc2C(=O)N(C)c2cccnc21	IIIB	nucleotide incorporation / radiometric	IC50	RT-K103N Y181C	<0.05 µM
CC(C)(C)c1ccc(-n2nnnc2SCC(=O)Nc2ccc(C(=O)Nc3cccc(C(=O)O)c3)cc2Cl)c(Cl)c1	-	PicoGreen / fluorescence	IC50	RT-K103 Y181C	<1 µM
Nc1ccn([C@H]2CC[C@@H](COP(=O)(O)OP(=O)(O)OP(=O)(O)O)O2)c(=O)n1	-	nucleotide incorporation / radiometric	IC50	RT-A62V V75I F77L F116Y Q151M	5 µM
CC(C)(C)c1ccc(-n2nnnc2SCC(=O)Nc2ccc(NC(=O)c3ccccc3O)cc2Cl)c(Cl)c1	-	PicoGreen / fluorescence	IC50	RT-K103 Y181C	<1 µM
CCN1c2ncc(CCOc3ccc(CC(=O)O)c4ccccc34)cc2C(=O)Nc2c(C)ccnc21	-	nucleotide incorporation / radiometric	IC50	RT-Y188L	>1 µM
CC(C)(C#Cc1ccc(NC(=O)CSc2nnnn2-c2ccc(C3CC3)cc2Cl)c(Cl)c1F)NC(=O)CN1CCNCC1	WT	PicoGreen / fluorescence	IC50	-	<1 µM
Cc1cc(S(N)(=O)=O)ccc1NC(=O)COc1ccccc1C(=O)c1cc(Cl)cc(C#N)c1	WT	nucleotide incorporation / radiometric	IC50	-	0.0082 µM
O=C(COc1ccc(NC(=O)CSc2nnnn2-c2ccc(C3CC3)cc2Cl)c(Cl)c1)NCCc1cccc[n+]1[O-]	-	PicoGreen / fluorescence	IC50	RT-K103 Y181C	<1 µM
Nc1nc2c(ncn2[C@H]2CC[C@@H](COP(=O)(O)OP(=O)(O)OP(=O)(O)O)O2)c(=O)[nH]1	-	nucleotide incorporation / radiometric	IC50	RT-V75I	0.071 µM
CC(C)(C)c1ccc(-n2nnnc2SCC(=O)Nc2ccc(-c3ccc(/C=C/C(=O)O)s3)cc2Cl)c(Cl)c1	WT	PicoGreen / fluorescence	IC50	-	<1 µM
CCN1c2ncc(CCOc3cccc4c3ccc[n+]4[O-])cc2C(=O)Nc2c(C)cc(Cl)nc21	-	nucleotide incorporation / radiometric	IC50	RT-K103N P225H	0.016 µM
CN(CCc1ccncc1)C(=O)COc1ccc(NC(=O)CSc2nnnn2-c2ccc(C3CC3)cc2Cl)c(Cl)c1	WT	PicoGreen / fluorescence	IC50	-	<1 µM
CCN1c2ncc(CCc3cc[n+]([O-])cc3)cc2C(=O)N(C)c2ccc(Cl)nc21	WT	nucleotide incorporation / radiometric	IC50	-	<1 µM

Repeating the first 7 entries:

| SMILES | strain | method | endpoint | changes | result |
|---|---|---|---|---|---|
| CC(C)(C#Cc1ccc(NC(=O)CSc2nnnn2-c2ccc(C3CC3)cc2Cl)c(Cl)c1)OCCN1CCC1 | - | PicoGreen / fluorescence | IC50 | RT-K103 Y181C | <1 µM |
| CCOCn1c(Sc2ccccc2)c(CC)c(=O)[nH]c1=O | - | nucleotide incorporation | IC50 | RT-Y181C | 3 µM |
| Cc1cc(C)cc(S(=O)(=O)c2c(C(N)=O)[nH]c3ccc(Cl)cc23)c1 | - | nucleotide incorporation / radiometric | IC50 | RT-Y181I | 0.14 µM |
| CCN1c2ncc(CCOc3ccc(C(=O)O)c4c3CCCC4)cc2C(=O)N(C)c2ccc(OC)nc21 | - | nucleotide incorporation / radiometric | IC50 | RT-K103N Y181C | 0.1–1 µM |
| CCOC(=O)CCNC(=O)c1ccc(NC(=O)CSc2nnc(Br)n2-c2ccc(CC)c3ccccc23)c(Cl)c1 | - | nucleotide incorporation / radiometric | IC50 | - | <0.05 µM |
| CC(C)(C)c1ccc(-n2nnnc2SCC(=O)Nc2ccc(C(=O)NCCc3ccncc3)cc2Cl)c(Cl)c1 | WT | PicoGreen / fluorescence | IC50 | - | <1 µM |
| O=C(CSc1nnc(Br)n1-c1ccc(C2CCC2)c2ccccc12)Nc1ccc(C(=O)O)cc1Cl | - | nucleotide incorporation / radiometric | IC50 | - | <0.05 µM |